Laboratory results reported in PMC12714728 (npj Viruses, 2025).

What was measured:
[1] = target: T1, hemagglutinin (HA) ectodomain of A/Vietnam/1203/2004 (H5N1) (influenza A virus A/Vietnam/1203/2004 …, biotin on the BirA site); details: both partners purified
[2] = target: H1/Bri HA, A/Brisbane/59/07 (H1N1) hemagglutinin, C-terminally biotinylated, for the CCI assay (influenza A virus A/Brisbane/59/07 …, C-terminal biotin); experiment: cell-based or functional assay
[3] = target: T1, hemagglutinin (HA) ectodomain of …; details: both partners purified; remark: listed apart in the source
[4] = target: T2, hemagglutinin (HA) ectodomain of A/New Caledonia/20/1999 (H1N1) (influenza A virus A/New …, biotin on the BirA site); experiment: AlphaScreen or HTRF; details: both partners purified
[5] = target: T2, hemagglutinin (HA) ectodomain of A/New …; experiment: cell-based or functional assay

Binder | IC50 [1] [nM] | conformational change inhibition assay (CCI) IC50 [2] [nM] | koff [3] [s⁻¹] | IC50 [4] [nM] | virus neutralization assay (VNA) EC50, H1/NCa virus [5] [nM]
CLYRDPLGVAGEMGC (disulfide between the two Cys (sidechain-sidechain cyclization)) [cyclic peptide CP10] | 7610 | 460 | 0.746 | 2930 | 88300
CLYEDPLGVAGGMGC (disulfide between the two Cys (sidechain-sidechain cyclization)) [cyclic peptide CP9] | 5590 | 230 | – | 700 | 820
